Source: the supplement of paper PMC9931576
Numbering of substitutions follows the chain as printed. Human monoclonal antibodies against the spike receptor-binding domain (heavy:light variable regions). IC50 against pseudoviruses bearing the spike of naturally observed variants; lower = stronger; >10 µg/ml means not reached at the top dose. No active / inactive call. The stated detection limit is 0.0005 µg/ml; values near or below 0.001 µg/ml lie at the floor of the assay.

B1: BD57-0133 (protein)
chain 1: QVHLQQWGAGLLKPSESLSLTCAVDGGSFNSYSWSWIRQPPGKGLEWIGDINRRGSTSYNPSLKSRLTISVDSSKNHCSLNLNAVTAADTAVYFCARGRYYLDSSDFGSNWFDPWGQGTLVTVSS
chain 2: QSMLTQPPSVSGAPGQRVTISCTGSSSNIGAGYDVHWYQLLPGRAPKLLIHGNSNRPSGVPDRFSGSKSGTSASLAITGLQAEDEADYYCQSYDTSLSVYVFGPGTKVTVL
B2: BD57-0129 (protein)
chain 1: EVHLVQSGGNLVQPGGSLRLSCVASEITVSSNYMSWVRQAPGKGLEWVSVIYSGGSTFYADSVKGRFIISRDNSKNTLYLEMNNVRVEDTAVYYCARDLGPLGGNDYWGQGTLVTVSS
chain 2: EIVMTQSPATLSVSPGERATLSCRASQSVSNNLAWYQQKPGQAPRLLIYGASTRATGIPARFSGSGSETEFTLNISSLQSEDFAVYYCQQYITWPPMYTFGQGTKLEIK
B3: BD57-0126 (protein)
chain 1: QVQLVQSGAEVKKPGSSVKVSCKASGGTFSSSVINWVRQAPGQGLEWMGRIIPTLRIANYAQNFQARVTITADKSTNTAYMELSSLTSEDTAMYYCATEGNHYDSSGLNSEYFQKWGQGTLVSVSS
chain 2: QSVLTQPPSVSGAPGQRVTISCTGSNSNIGAGYDVHWYQQFPRIAPKLIIYGNSNRPSGVPDRFSGSKSGTSASLAITGLQAEDEADYYCQSYDSSLIGVVFGGGTKLTVL
B4: BD57-0128 (protein)
chain 1: QVQLLQSGTEVKKPGSSVKVSCKASGGTFNSYSITWVRQSPGLGLEWMGRIIPILRIPDYAQKFQGRVTITADKSTSTAYMELSSLRSEDTAIYYCATAAGYTNYGANYYFDYWGQGTLVTVSS
chain 2: B3 chain 2 with S25G, N26S, R43G, I44T, K47R, I49L, G52A, S54T, I98S, V100S
B5: BD57-0121 (protein)
chain 1: EVQLVESGGGLVQPGGSLRLSCAASGFTFSNYEVNWVRQAPGKGLEWVSYIGTRGSAIYYADSVKGRFTISRDNAKNSLYLQMNSLRAEDTAVYYCASHRRYYFGPYAGLNYGMDVWGQGTTVTVSS
chain 2: DIQMTQSPSSVSASVGDRVTITCRASQGISTWLAWYQQKPGKAPKLMIYDASSLQSGVPSRFSGSGSGTDFTLTISSLQPEDFATYYCQQADSFPLTFGGGTKVEIK
B6: BD57-0120 (protein)
chain 1: EVQLVESGGGLVQPGGSLRLSCAASGFTFSNYDLHWLRQETGKSLEWVSLIGTAGDTYYADSVKGRFTISRQNAKNSLDLQMDSLRVEDTAVYYCARVSHIVVGGPGQRTNFHYYLDVWGKGTTVTVSS
chain 2: DIQMTQSPSSLSASVGDRVTITCRASQSISSHLNWYQQKPGKAPKLLMYAASNLQSGVPSRFSGTGFGTEFTLTISSLQPEDFAIYYCQQTYTSPSYTFGQGTKLEIK

Columns and labels:
Assay in all cases: pseudovirus neutralization IC50; higher = weaker neutralization
[1] = target: SARS-CoV-2 Omicron BA.1 spike pseudovirus
Protocol: (§1)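 Single-round VSV luciferase pseudovirus mixed with antibody dilutions for 1 h and put on Huh-7 cells for about a day; IC50 from the dose curve.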

[2] = target: SARS-CoV-2 Omicron BA.2 spike pseudovirus
Protocol: as §1

[3] = target: SARS-CoV-2 Omicron BA.2.75 spike pseudovirus
Protocol: as §1

[4] = target: SARS-CoV-2 Omicron BA.5 spike pseudovirus
Protocol: as §1

[5] = target: SARS-CoV-2 Omicron BQ.1.1 spike pseudovirus
Protocol: as §1

[6] = target: SARS-CoV-2 Omicron XBB spike pseudovirus
Protocol: as §1

[7] = target: SARS-CoV-2 early D614G spike pseudovirus
Protocol: as §1

Row | Binder | pseudovirus neutralization IC50 [1] | pseudovirus neutralization IC50 [2] | pseudovirus neutralization IC50 [3] | pseudovirus neutralization IC50 [4] | pseudovirus neutralization IC50 [5] | pseudovirus neutralization IC50 [6] | pseudovirus neutralization IC50 [7]
1 | B1 | 5.64 µg/mL | 3.45 µg/mL | 7.21 µg/mL | 3.26 µg/mL | > 10 µg/mL | > 10 µg/mL | > 10 µg/mL
2 | B2 | 0.00276 µg/mL | 0.0029 µg/mL | 0.0034 µg/mL | 0.00289 µg/mL | 0.00751 µg/mL | 0.0064 µg/mL | 0.00572 µg/mL
3 | B3 | 0.306 µg/mL | 0.285 µg/mL | 0.155 µg/mL | 2.38 µg/mL | > 10 µg/mL | > 10 µg/mL | 0.343 µg/mL
4 | B4 | 0.712 µg/mL | 0.519 µg/mL | 0.83 µg/mL | 3.35 µg/mL | > 10 µg/mL | > 10 µg/mL | 1.33 µg/mL
5 | B5 | > 10 µg/mL | > 10 µg/mL | > 10 µg/mL | > 10 µg/mL | > 10 µg/mL | > 10 µg/mL | > 10 µg/mL
6 | B6 | 2.28 µg/mL | 5.45 µg/mL | 3.12 µg/mL | 2.77 µg/mL | 1.55 µg/mL | 3.43 µg/mL | 4.44 µg/mL
